Results on 1 sequence are retold here after article doi:10.1101/2023.06.14.544911.

Sequences of proteins named here, by UniProt entry; tags and fusion partners are left off. A change or cut given only in a name is not applied to a line headed by its entry.
UniProt Q9NUD5: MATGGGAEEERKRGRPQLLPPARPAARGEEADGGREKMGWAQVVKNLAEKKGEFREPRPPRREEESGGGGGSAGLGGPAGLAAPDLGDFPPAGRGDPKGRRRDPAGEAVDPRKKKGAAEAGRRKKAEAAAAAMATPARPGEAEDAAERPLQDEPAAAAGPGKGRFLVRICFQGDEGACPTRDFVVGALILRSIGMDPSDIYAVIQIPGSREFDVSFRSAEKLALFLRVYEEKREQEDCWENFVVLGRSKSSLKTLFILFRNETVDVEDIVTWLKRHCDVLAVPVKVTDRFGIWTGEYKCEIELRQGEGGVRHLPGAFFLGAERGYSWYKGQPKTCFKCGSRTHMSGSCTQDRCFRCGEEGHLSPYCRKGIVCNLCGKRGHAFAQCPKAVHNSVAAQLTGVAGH

The series addresses T1, ZCCHC3 MF R168/247S R168S,R247S (human) (UniProt Q9NUD5).
T1 sequence (looked up): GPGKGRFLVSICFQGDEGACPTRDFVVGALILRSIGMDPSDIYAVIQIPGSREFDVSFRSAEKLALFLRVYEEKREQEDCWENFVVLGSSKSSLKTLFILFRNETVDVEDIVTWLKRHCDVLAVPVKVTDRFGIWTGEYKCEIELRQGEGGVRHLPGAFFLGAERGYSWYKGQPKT
Kind of series: pull-down. Particulars: residues 159-334.

Construct, isoform or probe ends are uncertain for at least one entry. The comparison behind a weaker result is the experiment's own reference, which may not be listed here. At least one verdict rests on a figure or table, not on a statement of the authors. Where a protein sequence is shown, tags need not be part of it.

With “CUAGAGAUCCCUCAGACCCUUUUAGUCAGUGUGGAAAAUCUCUAG [SL3]”, the binding result is on record as “binds more weakly”.
